# PubChem BioAssay AID624099 – ICCB-Longwood, 2012
# Purpose: 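Host factors E2 relies on to silence an HPV18 LCR reporter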 (primary screen)
# Cell system: human C33A cervical carcinoma cells (HPV-negative) stably expressing BPV1 E2 and an HPV18 LCR luciferase reporter
# Reagents: siRNA pool against human genes, 40 nM
# Duration: 72 h
# Read-out: 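HPV18 LCR reporter light per well, converted to plate-wise z-scores that exclude control wells, and averaged over triplicate plates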
# Scale: mean z-score and z-score: higher = stronger reporter signal, weaker E2 silencing
# Rule for the call: 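Hit if mean z-score reaches 2 and two or more of three replicate z-scores also reach 2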
# The deposit covers about 21,000 reagents; this is a random part of them. 497 of all reagents (2.4%) count as active. 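Higher z means weaker E2 silencing; only reporter increases were scored, and knock-downs that hurt cell survival may mask genuine repressor factors.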 Reagents against one gene are numbered here. No sequences are given here.
gene,reagent,mean z-score,"z-score, replicate A","z-score, replicate B","z-score, replicate C",Call
SLC25A40,1,1.14,0.95,1.43,1.03,inactive
SLC1A2,1,0.16,0.27,0.02,0.19,inactive
FRAT1,1,-0.57,-0.46,-0.6,-0.65,inactive
PTMAP5,1,-2,-1.82,-2.29,-1.89,inactive
GAL3ST1,1,-1.08,-1.14,-1.08,-1.03,inactive
SMOX,1,1.39,1.13,1.54,1.52,inactive
RNASEK,1,1.02,1.22,0.77,1.07,inactive
SORCS2,1,0.42,0.33,0.45,0.47,inactive
ARMH3,1,-0.07,-0.32,-0.45,0.55,inactive
ASAP1,1,-0.33,-0.51,-0.15,-0.32,inactive
LOC339162 (retired record),1,-0.42,-0.4,-0.35,-0.52,inactive
URB2,1,1.05,0.8,1.05,1.29,inactive
C14orf93,1,-1.13,-0.61,-1.25,-1.52,inactive
SUMO2,1,0.74,0.8,0.75,0.67,inactive
PPP2R2B,1,0.5,0.75,0.38,0.38,inactive
COG7,1,0.44,0.41,0.52,0.4,inactive
LCN6,1,0.78,1.4,0.58,0.36,inactive
MRPL58,1,-0.91,-0.73,-1.22,-0.77,inactive
RIC3,1,-0.38,-0.43,-0.68,-0.03,inactive
DRD2,1,0.2,0.08,0.08,0.44,inactive
PSMB11,1,-0.39,-0.44,-0.44,-0.31,inactive
NME5,1,0.24,-0.07,0.5,0.3,inactive
REM2,1,-0.92,-0.96,-0.94,-0.85,inactive
HLA-E,1,-0.54,-0.58,-0.46,-0.58,inactive
PLIN4,1,0.77,0.96,0.53,0.83,inactive
OSGIN2,1,-1.07,-1.31,-1.35,-0.54,inactive
LINC00667,1,-0.96,-0.8,-0.94,-1.14,inactive
LINC00667,2,-0.02,0.36,-0.5,0.07,inactive
DNAJB8,1,0.33,0.47,0.24,0.28,inactive
ELP6,1,1.15,1.07,1.36,1.03,inactive
UGT2B17,1,-0.31,-0.31,-0.32,-0.3,inactive
TMEM11,1,-1.22,-0.92,-1.58,-1.16,inactive
BMP2,1,1.46,1.2,1.45,1.72,inactive
DMRT2,1,-1.17,-1,-1.22,-1.28,inactive
OR1Q1,1,-0.86,-0.92,-0.89,-0.77,inactive
TIMMDC1,1,0.66,1.22,0.58,0.17,inactive
UBE3C,1,1.89,2.1,1.78,1.78,inactive
ZNF407,1,0.5,0.57,0.48,0.45,inactive
CDC23,1,0.71,0.51,0.6,1.01,inactive
